A mixed list of measured activities; the numbers were collected in NIAID ChemDB.

All rows: whole-cell or culture tests; agent: Human cytomegalovirus; method: plaque count; endpoint: EC50

Two numbers with a dash give a range or band. An empty or dashed field is not shown. ECn is the concentration giving n% inhibition of infection, replication or growth. Conditions beyond the fields shown may differ between rows.

| smiles | strain | cell line | value |
|---|---|---|---|
| O=C1c2ccccc2C(=O)N1CCC1C2CC3CC(C2)CC1C3 | AD169 | HEL | >100 µg/mL |
| Nc1ccn(COC(CO)CO)c(=O)n1 | AD169 | HFF | 1.9–14 µM |
| Nc1nc(=S)n([C@@H]2O[C@H](CO)[C@@H](O)[C@@H]2O)cc1Br | AD169 | MRC-5 | 2.81 µM |
| O=C1c2ccccc2C(=O)N1C12CC3CC(CC(C3)C1)C2 | AD169 | HEL | >100 µg/mL |
| CC#Cc1cn([C@@H]2O[C@H](COP(=O)(N[C@H](C(=O)OC)C(C)C)Oc3ccccc3)[C@@H](O)[C@@H]2O)c(=O)[nH]c1=O | AD169 | MRC-5 | >100 µM |
| O=S1(=O)N=C(OCc2ccc(Cl)cc2)C=CN1Cc1ccc(Cl)cc1 | AD169 | MRC-5 | 12.5 µM |
| O=C(O)c1ccccc1C(=O)NC12CC3CC(C1)CC(C(=O)O)(C3)C2 | AD169 | HEL | >100 µg/mL |
| Nc1nc2c(ncn2C[C@H]2CO[C@H](P(=O)(O)O)O2)c(=O)[nH]1 | WF1 | FLOW 2002 | 1.2 µg/mL |
| CC#Cc1cn([C@@H]2O[C@H](COP(=O)(O)Oc3ccc(F)cc3)[C@@H](O)[C@@H]2O)c(=O)[nH]c1=O | AD169 | MRC-5 | >100 µM |
| Nc1nc2c(ncn2COC(CO)CO)c(=O)[nH]1 | VR5611 (ganciclovir-susceptible) | - | 2.9 µM |
| CC#Cc1cn([C@@H]2O[C@H](COP(=O)(O)OCCCCCCCCCCCC)[C@@H](O)[C@@H]2O)c(=O)[nH]c1=O | AD169 | MRC-5 | >10 µM |
| Nc1nc2c(ncn2COC(CO)CO)c(=O)[nH]1 | GDGRP53 (drug-resistant) | HFF | 62.8 µM |
| CC#Cc1cn([C@@H]2O[C@H](COP(=O)(OCC(Cl)(Cl)Cl)Oc3ccccc3)[C@@H](O)[C@@H]2O)c(=O)[nH]c1=O | AD169 | MRC-5 | >10 µM |
| Cc1c[nH]c(=O)n(C[C@H]2CS[C@H](P(=O)(O)O)O2)c1=O | WF1 | FLOW 2002 | 6 µg/mL |
| Nc1nc2c(ncn2COC(CO)CO)c(=O)[nH]1 | AD169 | HEL | 1.9 µg/mL |
| O=C1c2sc3ccccc3c2N(Cc2ccc(Cl)cc2)S(=O)(=O)N1Cc1ccc(Cl)cc1 | AD169 | MRC-5 | 3.9 µM |
| OC[C@H]1O[C@@H](n2c(Br)nc3cc(Cl)c(Cl)cc32)[C@H](O)[C@@H]1O | Isolate Helebrand (wild type) | HFF | 1.22 µM |
| Nc1nc2c(ncn2OCC2COP(=O)(O)CO2)c(=O)[nH]1 | AD169 | MRC-5 | 14 µM |
| O[C@@H]1[C@H](O)[C@H](O)CO[C@H]1n1c(Br)nc2cc(Cl)c(Cl)cc21 | CH | HFF | 3 µM |
| O=c1[nH]c(=S)n([C@H]2C[C@H](O)[C@@H](CO)O2)cc1Br | AD169 | MRC-5 | 114 µM |
| CC#Cc1cn([C@@H]2O[C@H](COP(=O)(O)Oc3ccccc3Cl)[C@@H](O)[C@@H]2O)c(=O)[nH]c1=O | AD169 | MRC-5 | >100 µM |
| C[C@H]1O[C@@H](n2c(Cl)nc3cc(Cl)c(Cl)cc32)[C@H](O)C1O | Isolate D10 (D344E mutation) | HFF | 3.1 µM |
| O=C1c2cccc([N+](=O)[O-])c2C(=O)N1C12CC3CC(CC(C3)C1)C2 | AD169 | HEL | >20 µg/mL |
| Cc1cn([C@H]2C[C@H](O)[C@@H](CO)O2)c(=S)[nH]c1=O | AD169 | MRC-5 | 29.3 µM |
| CC(C)Nc1nc2cc(Cl)c(Cl)cc2n1[C@H]1O[C@@H](CO)[C@H](O)[C@@H]1O | Isolate Helebrand (resistant) | HFF | 0.22 µM |
| Nc1nc2c(ncn2C[C@H]2CC[C@@H](P(=O)(O)O)O2)c(=O)[nH]1 | WF1 | FLOW 2002 | 50 µg/mL |
| CC(C)Oc1ccccc1CNC(=O)c1ccc2cnccc2n1 | 4760RECPOLA1-1-1 | HFF | 0.04 µM |
| COC(=O)c1ccc(CN(C)C(=O)N2C(=O)C[C@@H]2CSc2ncccn2)cc1 | - | - | 3.4 µM |
| Nc1ncnc2c1ncn2C[C@H]1COP(=O)(O)CO1 | DAVIS | HEL | 0.43 µM |
| Nc1nc2c(ncn2COC(CO)CO)c(=O)[nH]1 | AD169 | HFF | 4.3 µM |
| O=C1c2sc3ccccc3c2N(Cc2ccc(Cl)cc2)S(=O)(=O)N1Cc1ccccc1 | AD169 | MRC-5 | 12.7 µM |
| O=C1CCCC(C23CC4CC(C2)CC(N2C(=O)c5ccccc5C2=O)(C4)C3)C1 | DAVIS | HEL | >4 µg/mL |
| O=C(O)c1cn(C2CC2)c2nc(N3CCN(c4nc5ccccc5s4)CC3)ccc2c1=O | AD169 | HFF | 0.19 µM |
| O=C(NCCc1ccccc1)C1=Cc2ccncc2CC1 | AD169 | HS68 | 2.4 µM |
| CN(C)n1cc(C(=O)O)c(=O)c2cc(N)c(N3CCN(c4ccccn4)CC3)cc21 | AD169 | HFF | 1.2 µM |
| Nc1nc2c(ncn2COC(CO)CO)c(=O)[nH]1 | BT1943 | WI-38 | 1.1 µM |
| [O-][n+]1onc2ncnc(N3CC[N+]4(CC3)CC[N+]3(CCN(c5ncnc6no[n+]([O-])c56)CC3)CC4)c21 | TB-40E | HELF | 0.18 µM |
| Nc1cc2c(=O)c(C(=O)O)cn(C3CC3)c2cc1N1CCN(c2cnccn2)CC1 | AD169 | HFF | 1.4 µM |
| OC[C@H]1O[C@@H](n2c(Br)nc3cc(Cl)c(Cl)cc32)[C@H](O)[C@@H]1O | - | - | 2.9 µM |
| Nc1cc2c(=O)c(C(=O)O)cn(C3CC3)c2cc1N1CCN(c2ccccn2)CC1 | AD169 | HFF | 1 µM |
| CN1CCN(n2cc(C(=O)NCc3ccc(Cl)cc3)c(=O)c3cc(CN4CCOCC4)ccc32)CC1 | DAVIS | HFF | 1.2 µM |
| NC1=NCCN1CC(=O)O | C8805-37 (ganciclovir-resistant) | MRC-5 | 8500 µM |
| O=C1c2ccccc2C(=O)N1CCCC12CC3CC(CC(C3)C1)C2 | DAVIS | HEL | ≥4 µg/mL |
| Nc1nc2c(ncn2OCCOCP(=O)(O)O)c(=O)[nH]1 | AD169 | MRC-5 | 0.07 µM |
| COc1ccccc1CNC(=O)C1=Cc2ccncc2CC1 | AD169 | MRC-5 | 13.8 µM |
| Nc1nc(N)c2ncn(C[C@H]3CO[C@H](P(=O)(O)O)O3)c2n1 | WF1 | FLOW 2002 | 8 µg/mL |
| OC[C@H]1O[C@@H](n2c(Br)nc3cc(Cl)c(Cl)cc32)[C@H](O)[C@@H]1O | VR4955R (drug-resistant) | HFF | 2.8 µM |
| Cc1cn([C@@H]2OC(O[Si](C)(C)C(C)(C)C)C3(OS(=O)(=O)C=C3NCCC(=O)OCc3ccccc3)C2O[Si](C)(C)C(C)(C)C)c(=O)n(C)c1=O | DAVIS | HEL | >400 µM |
| Nc1ccn(C[C@@H](CO)OCP(=O)(O)O)c(=O)n1 | AD169 | HEL | 0.25 µM |
| CNc1cc2c(=O)c(C(=O)O)cn(C)c2cc1N1CCN(c2cccc(C(F)(F)F)c2)CC1 | AD169 | HFF | 3.5 µM |
| OC[C@H]1O[C@@H](n2c(Br)nc3cc(Cl)c(Cl)cc32)[C@H](O)[C@@H]1O | 1038RB | MRC-5 | 20 µM |
| O=C1c2ccccc2C(=O)N1CC12CC3CC(CC(O)(C3)C1)C2 | DAVIS | HEL | >100 µg/mL |
| CN(Cc1ccc([N+](=O)[O-])cc1)C(=O)N1C(=O)C[C@@H]1CSc1ncccn1 | - | - | 1.2 µM |
| O=C1c2ccccc2C(=O)N1CCCC1C2CC3CC(C2)CC1C3 | DAVIS | HEL | ≥4 µg/mL |
| O=C1NCc2ccccc2OCC/C=C/c2cncc3ccc1nc23 | D16 (ganciclovir-resistant UL54 mutant) | MRC-5 | 0.0056 µg/mL |
| O=c1[nH]c(=S)n([C@H]2C[C@H](O)[C@@H](CO)O2)cc1Cl | AD169 | MRC-5 | 211 µM |
| Nc1cc2c(=O)c(C(=O)O)cn(C3CC3)c2cc1N1CCN(c2ccc3ccccc3n2)CC1 | AD169 | HFF | 1.7 µM |
| CC#Cc1cn([C@@H]2O[C@H](COP(=O)(O)OCC(Cl)(Cl)Cl)[C@@H](O)[C@@H]2O)c(=O)[nH]c1=O | AD169 | MRC-5 | >100 µM |
| COc1ccccc1N1CCN(c2cc3c(cc2N)c(=O)c(C(=O)O)cn3C2CC2)CC1 | AD169 | HFF | >25 µM |
| Nc1ccn([C@@H]2O[C@H](CO)[C@@H](O)[C@H]2O)c(=S)n1 | AD169 | MRC-5 | >386 µM |
| COC(=O)[C@H](C)NP(=O)(OCC1C/C1=C/n1cnc2c(N)ncnc21)Oc1ccccc1 | TOWNE | HFF | 0.14 µM |

A second listing of 7 rows from above:

smiles | strain | cell line | value
Nc1ncnc2c1ncn2C[C@H]1COP(=O)(O)CO1 | DAVIS | HEL | 0.43 µM
Nc1nc2c(ncn2COC(CO)CO)c(=O)[nH]1 | GDGRP53 (drug-resistant) | HFF | 62.8 µM
CC#Cc1cn([C@@H]2O[C@H](COP(=O)(O)OCCCCCCCCCCCC)[C@@H](O)[C@@H]2O)c(=O)[nH]c1=O | AD169 | MRC-5 | >10 µM
CC#Cc1cn([C@@H]2O[C@H](COP(=O)(N[C@H](C(=O)OC)C(C)C)Oc3ccccc3)[C@@H](O)[C@@H]2O)c(=O)[nH]c1=O | AD169 | MRC-5 | >100 µM
CN(C)n1cc(C(=O)O)c(=O)c2cc(N)c(N3CCN(c4ccccn4)CC3)cc21 | AD169 | HFF | 1.2 µM
CC#Cc1cn([C@@H]2O[C@H](COP(=O)(OCC(Cl)(Cl)Cl)Oc3ccccc3)[C@@H](O)[C@@H]2O)c(=O)[nH]c1=O | AD169 | MRC-5 | >10 µM
Nc1cc2c(=O)c(C(=O)O)cn(C3CC3)c2cc1N1CCN(c2cnccn2)CC1 | AD169 | HFF | 1.4 µM